These results are taken from patent US10059741B2 (priority 2015, dated 2018).

Where “and” joins values, the source holds several entries; their conditions need not be identical. Identical values can stand only once. Like-named read-outs stand apart in the source and are kept apart here.

For series [1], the system named is H3N2 Perth/16/2009. Type of series: cell-based, influenza A virus.
For series [2], the system named is H1N1 California/07/2009. Type of series: cell-based, influenza A virus.
Series [3] relates to H3N2 Perth/16/2009. Type of series: cell-based, influenza A virus. The source holds these as a separate data set.
Series [4] has as its system H1N1 California/07/2009. Type of series: cell-based, influenza A virus. This is another data set of the same source.
Series [5] can be described thus: in vitro. The following applies: dog.
The test system of series [6] is influenza virus, various viral strains. Type of series: cell-based.
Setting [7] is: read-out: EC50 (μM) H1N1 California/07/2009.
[8] abbreviates: CC50 (μM) H1N1 California/07/2009, Cell cytotoxicity (CC), run with H1N1 California/07/2009.
The mark [9] stands for this setting: CC50 (μM) H3N2 Perth/16/2009, Cell cytotoxicity (CC), run with H3N2 Perth/16/2009.
[10] abbreviates: CC50, MDCK cells, run with Influenza A H1N1 California/07/2009, Neutral Red.
Setting [11] is: CC50, MDCK cells, run with Influenza A H1N1 California/07/2009, Visual.
Where [12] appears, read: Cytopathic effect/toxicity (Neutral red), MDCK cells.
Setting [13] is: Cytopathic effect/toxicity (Neutral red), MDCK cells, read-out: EC50 (μM) H1N1 California/07/2009.
[14] abbreviates: Influenza A H1N1 California/07/2009, Neutral Red, read-out: EC50.
Where [15] appears, read: Cytopathic effect/toxicity (Visual), MDCK cells.
[16] abbreviates: Cytopathic effect/toxicity (Visual), MDCK cells, read-out: EC50 (μM) H1N1 California/07/2009.
Where [17] appears, read: CC50, MDCK cells, run with Influenza A H1N1 California/07/2009, VYR/Neutral Red.
Where [18] appears, read: CC50, MDCK cells, run with Influenza A H3N2 Perth/16/2009, Neutral Red.
Where [19] appears, read: CC50, MDCK cells, run with Influenza A H3N2 Perth/16/2009, VYR/Neutral Red.

As usually defined, the CC50 is the concentration giving 50% cytotoxicity. Low readings indicate greater toxicity to the cells, high ones lower toxicity to the cells. Regarding `CCCC[C@H](NC(C)=O)C(=O)N[C@@H](CC(=O)O)C(=O)N[C@H](C(=O)N[C@@H](CC(N)=O)C(=O)N[C@@]1(C)CCCC=CCCC[C@@](C)(C(=O)N[C@@H](CC(C)C)C(=O)N[C@@H](C)C(=O)N[C@H](C(=O)N[C@@H](C)C(=O)N[C@@H](C)C(=O)N[C@@H](CCC(N)=O)C(=O)N[C@@H](C)C(=O)N[C@@H](C)C(N)=O)C(C)C)NC(=O)[C@H](CC(C)C)NC(=O)[C@H](CC(C)C)NC(=O)[C@H]([C@@H](C)O)NC1=O)C(C)C` [SP-8], the EC50 in series [1] is 25 to 50 µM; in series [2] (read-out: EC50) it was 19 µM and 38 µM; in series [2] (setting [7]) it was 10 to 25 µM; in series [3] it was 25 to 50 µM; in series [4] (setting [7]) it was 10 to 25 µM. In addition, the CC50 in series [5] (setting [8]), in series [5] (setting [9]), in series [5] (setting [10]) and in series [5] (setting [11]) was > 100 µM in each case.
Take `CCCC[C@H](NC(C)=O)C(=O)N[C@@H](CC(=O)O)C(=O)N[C@H](C(=O)N[C@@H](CC(N)=O)C(=O)N[C@@]1(C)CCCC=CCCC[C@@](C)(C(=O)N[C@@H](CC(C)C)C(=O)N[C@@H](C)C(=O)N[C@H](C(=O)N[C@@H](CCC(=O)O)C(=O)N[C@@H](C)C(=O)N[C@@H](C)C(=O)N[C@@H](C)C(=O)N[C@@H](C)C(N)=O)C(C)C)NC(=O)[C@H](CC(C)C)NC(=O)[C@H](CC(C)C)NC(=O)[C@H]([C@@H](C)O)NC1=O)C(C)C` [SP-15]: the EC50 is 25 to 50 µM in series [1] (setting [12]); 25 to 50 µM in series [2] (setting [13]); 28 µM and 31 µM in series [2] (setting [14]); 25 to 50 µM in series [3] (setting [15]); 25 to 50 µM in series [4] (setting [16]); 32 µM in series [4] (Influenza A H1N1 California/07/2009, Visual, read-out: EC50). In addition, the CC50 in series [5] (setting [8]), in series [5] (setting [9]), in series [5] (setting [10]) and in series [5] (setting [11]) was > 100 µM each time.
As usually defined, the EC90 is the concentration at which the effect reaches the 90% level. Read a high EC90 as a need for much substance. Regarding `CCCC[C@H](NC(C)=O)C(=O)N[C@@H](CC(=O)O)C(=O)N[C@H](C(=O)N[C@@H](CC(N)=O)C(=O)N[C@@]1(C)CCCC=CCCC[C@@](C)(C(=O)N[C@@H](CC(C)C)C(=O)N[C@@H](C)C(=O)N[C@H](C(=O)N[C@@H](CCC(N)=O)C(=O)N[C@@H](C)C(=O)N[C@@H](C)C(=O)N[C@@H](C)C(=O)N[C@@H](C)C(N)=O)C(C)C)NC(=O)[C@H](CC(C)C)NC(=O)[C@H](CC(C)C)NC(=O)[C@H]([C@@H](C)O)NC1=O)C(C)C` [SP-14], the EC50 fell in the range of 25 to 50 µM in series [1] (setting [12]), 1.5 to 10 µM in series [2] (setting [13]), 25 to 50 µM in series [3] (setting [15]) and 1.5 to 10 µM in series [4] (setting [16]). Also, the EC90 came to 29 µM in series [6] (Influenza A H1N1 California/07/2009, VYR/Neutral Red) and 100 µM in series [6] (Influenza A H3N2 Perth/16/2009, VYR/Neutral Red). The CC50 in series [5] (setting [8]), in series [5] (setting [9]), in series [5] (setting [10]), in series [5] (setting [17]), in series [5] (setting [11]) and in series [5] (setting [18]) was > 100 µM in each case. The CC50 in series [5] (setting [19]) is > 100 µM.
For `CCCC[C@H](NC(C)=O)C(=O)N[C@@H](CC(=O)O)C(=O)N[C@H](C(=O)N[C@@H](CC(N)=O)C(=O)N[C@@]1(C)CCCC=CCCC[C@@](C)(C(=O)N[C@@H](CC(C)C)C(=O)N[C@@H](C)C(=O)N[C@H](C(=O)N[C@@H](C)C(=O)N[C@@H](C)C(=O)N[C@@H](C)C(=O)N[C@@H](C)C(=O)N[C@@H](C)C(N)=O)C(C)C)NC(=O)[C@H](CC(C)C)NC(=O)[C@H](CC(C)C)NC(=O)[C@H]([C@@H](C)O)NC1=O)C(C)C` [SP-9], the EC50 in series [1] (setting [12]) is 25 to 50 µM; in series [2] (setting [13]), 10 to 25 µM; in series [2] (setting [14]) it was 22 µM and 41 µM; in series [3] (setting [15]) it was 25 to 50 µM; in series [4] (setting [16]) it was 10 to 25 µM. Further, the CC50 in series [5] (setting [8]), in series [5] (setting [9]), in series [5] (setting [10]) and in series [5] (setting [11]) was > 100 µM throughout.
As for `CCCC[C@H](NC(C)=O)C(=O)N[C@@H](CC(=O)O)C(=O)N[C@H](C(=O)N[C@@H](CC(N)=O)C(=O)N[C@@]1(C)CCCC=CCCC[C@@](C)(C(=O)N[C@@H](CC(C)C)C(=O)N[C@@H](C)C(=O)N[C@H](C(=O)N[C@@H](CCC(N)=O)C(=O)N[C@@H](C)C(=O)N[C@@H](CCC(N)=O)C(=O)N[C@@H](C)C(=O)N[C@@H](C)C(N)=O)C(C)C)NC(=O)[C@H](CC(C)C)NC(=O)[C@H](CC(C)C)NC(=O)[C@H]([C@@H](C)O)NC1=O)C(C)C` [SP-11], the EC50 in series [1] lay within 10 to 25 µM; in series [2] (setting [7]) it was 1.5 to 10 µM; in series [3] it was 10 to 25 µM; in series [4] (setting [7]), 1.5 to 10 µM. The EC90 in series [6] was 21 µM and 26 µM. The CC50 in series [5] (setting [8]), in series [5] (setting [9]), in series [5] (setting [10]), in series [5] (setting [17]), in series [5] (setting [11]) and in series [5] (setting [18]) was > 100 µM each time. Further, the CC50 in series [5] (setting [19]) was > 100 µM.
`CCCC[C@H](NC(C)=O)C(=O)N[C@@H](CC(=O)O)C(=O)N[C@H](C(=O)N[C@@H](CC(N)=O)C(=O)N[C@@]1(C)CCCC=CCCC[C@@](C)(C(=O)N[C@@H](CC(C)C)C(=O)N[C@@H](C)C(=O)N[C@H](C(=O)N[C@@H](CO)C(=O)N[C@@H](C)C(=O)N[C@@H](C)C(=O)N[C@@H](C)C(=O)N[C@@H](C)C(N)=O)C(C)C)NC(=O)[C@H](CC(C)C)NC(=O)[C@H](CC(C)C)NC(=O)[C@H]([C@@H](C)O)NC1=O)C(C)C` [SP-13]: the EC50 in series [1] (setting [12]) was > 50 µM; in series [2] (setting [13]) it was 25 to 50 µM; in series [3] (setting [15]) it was > 50 µM; in series [4] (setting [16]), 25 to 50 µM. Also, the CC50 in series [5] (setting [8]), in series [5] (setting [9]), in series [5] (setting [10]) and in series [5] (setting [11]) was > 100 µM in each case.
For the compound `CCCC[C@H](NC(C)=O)C(=O)N[C@@H](CC(=O)O)C(=O)N[C@H](C(=O)N[C@@H](CC(N)=O)C(=O)N[C@@]1(C)CCCC=CCCC[C@@](C)(C(=O)N[C@@H](CC(C)C)C(=O)N[C@@H](C)C(=O)N[C@H](C(=O)N[C@@H](CCC(=O)O)C(=O)N[C@@H](C)C(=O)N[C@@H](CCC(N)=O)C(=O)N[C@@H](C)C(=O)N[C@@H](C)C(N)=O)C(C)C)NC(=O)[C@H](CC(C)C)NC(=O)[C@H](CC(C)C)NC(=O)[C@H]([C@@H](C)O)NC1=O)C(C)C` [SP-12], the EC50 in series [1] is 10 to 25 µM; in series [2] (setting [7]), 1.5 to 10 µM; in series [3] it was 10 to 25 µM; in series [4] (setting [7]) it was 1.5 to 10 µM. For the same compound, the CC50 in series [5] (setting [8]), in series [5] (setting [9]), in series [5] (setting [10]), in series [5] (setting [17]), in series [5] (setting [11]) and in series [5] (setting [18]) was > 100 µM in each case. For the same compound, in series [5] (setting [19]), the cytotoxic concentration (CC50) was > 100 µM.
Regarding `CCCC[C@H](NC(C)=O)C(=O)N[C@@H](CC(=O)O)C(=O)N[C@H](C(=O)N[C@@H](CC(N)=O)C(=O)N[C@@]1(C)CCCC=CCCC[C@@](C)(C(=O)N[C@@H](CC(C)C)C(=O)N[C@@H](C)C(=O)N[C@H](C(=O)N[C@@H](CO)C(=O)N[C@@H](C)C(=O)N[C@@H](CCC(N)=O)C(=O)N[C@@H](C)C(=O)N[C@@H](C)C(N)=O)C(C)C)NC(=O)[C@H](CC(C)C)NC(=O)[C@H](CC(C)C)NC(=O)[C@H]([C@@H](C)O)NC1=O)C(C)C` [SP-10], the EC50 in series [1] was 25 to 50 µM; in series [2] (read-out: EC50), 35 µM and 32 µM; in series [2] (setting [7]), 25 to 50 µM; in series [3], 25 to 50 µM; in series [4] (read-out: EC50), 32 µM; in series [4] (setting [7]) it was 25 to 50 µM. Moreover, the CC50 in series [5] (setting [8]), in series [5] (setting [9]), in series [5] (setting [10]) and in series [5] (setting [11]) was > 100 µM throughout.
